Source: ChEMBL document CHEMBL1131418, “Antiviral oligo- and polyribonucleotides containing selected triazolo[2,3-a]purines” (J Med Chem, 1998)

Legend:
[1] = system: CEM-SS; assay: Inhibitory concentration for anti-HIV activity against HIV-IIIB in CEM-SS cells; format: functional, cell-based, Homo sapiens
[2] = system: MRC5; assay: Inhibitory concentration for anti-HCMV activity against AD-169 strain in MRC-5 cells

| Structure (SMILES) | IC50 [1] [µM] | IC50 [2] [µM] |
| --- | --- | --- |
| Cn1cnc2c(ncn2[C@@H]2O[C@H](COP(C)(=O)O)[C@@H](OP(C)(=O)O)[C@H]2O)c1=S | 0.08 | 0.15 |
| Cn1cnn2c(=O)c3ncn([C@@H]4O[C@H](COP(C)(=O)O)[C@@H](OP(C)(=O)O)[C@H]4O)c3nc12 | 1 | 0.43 |
| CO[C@@H]1[C@H](OP(C)(=O)O)[C@@H](COP(C)(=O)O)O[C@H]1n1cnc2c(=O)n3ncn(C)c3nc21 | > 7 | 6.7 |
| CO[C@@H]1[C@H](OP(C)(=O)O)[C@@H](COP(C)(=O)O)O[C@H]1n1cnc2c(=S)n3ncn(C)c3nc21 | 1.7 | > 2.8 |
